Measured values from several laboratories, pooled; numbers as filed in NIAID ChemDB.

Shared fields: tests in culture; agent: Cryptococcus neoformans; endpoint: MIC

Blank or dashed fields: not listed here. a–b is a range or a potency band. Neighbouring rows are from separate reports.

smiles,strain or isolate,value
C[C@H]1N(C(=O)c2ccc(C(F)(F)F)cc2)C[C@@H](O)O[C@@]1(Cn1cncn1)c1ccc(F)cc1F,89-127,2 µg/mL
CCCCCC(Cn1ccnc1)c1ccc(Br)cc1,,<1 µg/mL
O=C1/C(=C/c2ccc(O)cc2)CCc2ccccc21,25,100 µg/mL
OC(c1cc(-c2ccccc2)nc2c(Cl)cc(Cl)cc12)C1CCCCN1,ATCC 90013,1.5 µg/mL
CCN1CCS/C1=C(/C#N)n1ccnc1,,>100 µg/mL
Cn1ccc(C(Cc2ccc(N)cc2)n2ccnc2)c1,,300 µM
CCCCC(Cn1ccnc1)c1ccc(Br)cc1,,<1 µg/mL
COc1ccccc1/C=C1\COc2ccc(-c3ccccc3)cc2C1=O,93/V,50 µg/mL
CCCCC(Cn1ccnc1)c1ccccc1Br,,10 µg/mL
CNC1C(C)OC(O[C@H]2c3cc(C)c(C(=O)N[C@H](C)C(=O)N[C@H](C)C(=O)O)c(O)c3-c3c(cc4c(c3O)C(=O)c3cc(OC)cc(O)c3C4=O)[C@@H]2O)C(O)C1OC1OCC(O)C(O)C1O,IAM 4514,>100 µg/mL
CSc1nc2ccccc2c(=O)n1/N=C1\C(=O)N(CN2CCOCC2)c2ccccc21,,4.88 µg/mL
Cc1ccc(C(Cc2ccc(Cl)cc2Cl)n2ccnc2)s1,,4.7 µM
CCCCCCCCCCCCC/C=C/C1=N[C@H]1C(=O)OC,var. grubii,4 µg/mL
COc1cc(O)c2c(c1)C(=O)c1c(cc3c(c1O)-c1c(cc(C)c(C(=O)NC(C)C(=O)O)c1O)[C@H](OC1OC(C)C(N(C)C)C(OC4OCC(O)C(O)C4O)C1O)[C@H]3O)C2=O,IAM 4514,0.8 µg/mL
CNC1C(C)OC(O[C@H]2c3cc(C)c(C(=O)N[C@H](C)C(=O)OC)c(O)c3-c3c(cc4c(c3O)C(=O)c3cc(OC)cc(O)c3C4=O)[C@@H]2O)C(O)C1OC1OCC(O)C(O)C1O,IAM 4514,12.5 µg/mL
CCOC(=O)c1c(C)nc(OCCCNc2ccnc3cc(Cl)ccc23)nc1-c1ccccc1,ATCC 24067,5.7 µg/mL
CN[C@@H]1[C@H](O[C@@H]2OC[C@@H](O)[C@H](O)[C@H]2O)[C@@H](O)[C@H](O[C@H]2c3c(Br)c(C)c(C(=O)N[C@H](C)C(=O)O)c(O)c3-c3c(cc4c(c3O)C(=O)c3cc(OC)cc(O)c3C4=O)[C@@H]2O)O[C@@H]1C,IAM 4514,>100 µg/mL
CC1CCS/C(=C(/C#N)n2ccnc2)S1,,>100 µg/mL
O=C1/C(=C/c2ccc(Cl)cc2)CSc2ccccc21,93/V,12.5 µg/mL
COc1ccc(Cc2nc(N)[nH]c2Cc2ccc(OC)cc2)cc1,,6.25 µg/mL
CNC1C(C)OC(O[C@H]2c3cc(C)c(C(=O)N[C@H](C)C(=O)NCC(=O)O)c(O)c3-c3c(cc4c(c3O)C(=O)c3cc(OC)cc(O)c3C4=O)[C@@H]2O)C(O)C1OC1OCC(O)C(O)C1O,IAM 4514,>50 µg/mL
Cn1ccc(C(Cc2ccc([N+](=O)[O-])cc2)n2ccnc2)c1,,150 µM
C[C@H]1[C@H](O)[C@@H](C)/C=C/C=C/C=C/C=C/C=C/C=C/C=C/[C@H](O[C@@H]2O[C@H](C)[C@@H](O)[C@H](N)[C@@H]2O)C[C@@H]2O[C@](O)(C[C@@H](O)C[C@@H](O)CC[C@H](O)[C@@H](O)C[C@@H](O)CC(=O)O[C@H]1C)C[C@H](O)[C@H]2C(=O)O,D49,0.2 µg/mL
Cc1ccc2sn(NS(=O)(=O)c3ccc(N)cc3)c(=O)c2c1,,>100 µg/mL
Clc1ccc(C(Cn2ccnc2)OC/C=C/c2ccccc2)c(Cl)c1,,>128 µg/mL
CSc1nc2ccccc2c(=O)n1/N=C1\C(=O)Nc2ccc(Br)cc21,,9.76 µg/mL
COc1ccc(Cc2nc(N=C3NC(=O)N(C)C3=O)n(C)c2Cc2ccc(O)cc2)cc1,,12.5 µg/mL
CC(C)=C[C@H]1C[C@](C)(O)C2C3CCC4[C@@]5(C)CCC[C@](C)(O[C@H]6OC[C@H](O)[C@H](OC7O[C@H](CO)[C@@H](O)[C@H](O)[C@H]7OC(=O)/C=C/c7ccc(OC(=O)CC(=O)O)cc7)[C@H]6O[C@H]6C[C@H](CO)[C@@H](O)[C@@H]6O)C5CC[C@@]4(C)[C@@]34CO[C@@]2(C4)O1,,>50 µg/mL
CCCCC/C=C/C=C/C(O)C/C=C/C=C/C(=O)OC1C(O)C(c2c(O)cc(O)cc2CO)OC(CO)C1OC1OC(C(O)COC(=O)/C=C/C=C\CCC(O)CC)C(O)C1O,IMC F-10,>100 µg/mL
O=[N+]([O-])c1ccc(C=Nc2ccccc2O)cc1,Broth microdilution,11.3 µg/mL
Cc1ccc(C(Cn2ccnc2)OCc2ccc(-c3ccccc3)cc2)cc1,,>128 µg/mL
Cc1ccc(/C=C2\CCc3ccccc3C2=O)cc1,Farwania,100 µg/mL
Cc1cc2c(c(O)c1C(=O)NCC(=O)O)-c1c(cc3c(c1O)C(=O)c1cc(OCC(N)=O)cc(O)c1C3=O)[C@H](O)[C@H]2O[C@@H]1O[C@H](C)[C@H](O)[C@H](O[C@@H]2OC[C@@H](O)[C@H](O)[C@H]2O)[C@H]1O,IAM 4514,>100 µg/mL
CCCCCC(Cn1ccnc1)c1ccc(F)cc1,,10 µg/mL
CSc1nc2ccccc2c(=O)n1/N=C1\C(=O)N(CN2CCOCC2)c2ccc(Br)cc21,,9.76 µg/mL
O=C1C[C@@H](c2ccc(F)cc2)Cc2cc(O)cc(O)c21,Clinical isolate H99,27 µg/mL
Cc1ccc(C(Cc2ccc(N)cc2)n2ccnc2)s1,,37.5 µM
CCc1ccc(/C=C2\CCc3ccccc3C2=O)cc1,Farwania,12.5 µg/mL
CSc1nc2ccccc2c(=O)n1/N=C1\C(=O)N(CN2CCCCC2)c2ccc(Br)cc21,,39.06 µg/mL
C[C@@H](n1cnc2cc(Cl)ccc2c1=O)[C@](O)(Cn1cncn1)c1ccc(F)cc1F,Isolate 114.95,0.0098 µg/mL
OC(c1cc(C2CC3CCC2CC3)nc2c(Cl)cc(Cl)cc12)C1CCCCN1,ATCC90112,0.4 µg/mL
CCCC(O)C/C=C\C=C\C(=O)OC[C@H]1O[C@@H](O[C@@H]2[C@H](OC(=O)/C=C/C=C/CC(O)/C(C)=C/C=C/CCC(C)CC)[C@@H](O)[C@]3(OCc4cc(O)cc(O)c43)O[C@@H]2CO)[C@H](O)[C@@H](O)[C@H]1O,MY1146,>128 µg/mL
CCCCCCCCCC/C=C\C1=N[C@H]1C(=O)OC,var. grubii,4–5 µg/mL
COc1ccc2c(c1)C(=O)/C(=C/c1ccccc1OC)CO2,93/V,6 µg/mL
c1ccc(-c2ccc(COC(Cn3ccnc3)c3ccccc3)cc2)cc1,,>128 µg/mL
CSc1nc2ccccc2c(=O)n1/N=C1\C(=O)Nc2ccc(Cl)cc21,,4.88 µg/mL
O=C(C(=C1SCCCS1)n1ccnc1)c1ccc(Cl)cc1,,>100 µg/mL
CN[C@@H]1[C@H](O[C@@H]2OC[C@@H](O)[C@H](O)[C@H]2O)[C@@H](O)[C@H](O[C@H]2c3cc(C)c(C(=O)N[C@H](C)C(=O)O)c(O)c3-c3c(cc4c(c3O)C(=O)c3cc(OC)cc(O)c3C4=O)[C@@H]2O)O[C@@H]1C,D49,1.6 µg/mL
CNC1C(C)OC(O[C@H]2c3cc(C)c(C(=O)N[C@H](C)C(N)=O)c(O)c3-c3c(cc4c(c3O)C(=O)c3cc(OC)cc(O)c3C4=O)[C@@H]2O)C(O)C1OC1OCC(O)C(O)C1O,IAM 4514,1.6 µg/mL
O=[N+]([O-])c1ccc(CC(c2ccc(Cl)s2)n2ccnc2)cc1,,4.7 µM
O=C1C[C@@H](c2ccc(F)c(Br)c2)Cc2cc(O)cc(O)c21,Clinical isolate H99,71 µg/mL
CCCCCCCCOc1ccc(C(=O)NC2C[C@@H](O)[C@@H](O)NC(=O)C3[C@@H](O)[C@@H](C)CN3C(=O)C(C(C)O)NC(=O)C([C@H](O)[C@@H](O)c3ccc(O)cc3)NC(=O)C3C[C@@H](O)CN3C(=O)C(C(C)O)NC2=O)cc1,MY1146,>128 µg/mL
CCCCCCC(Cn1ccnc1)c1ccccc1Br,,10 µg/mL
C(=C\c1ccccc1)/COC(Cn1ccnc1)c1ccccc1,,>128 µg/mL
CCN1/C(=C(\C#N)n2ccnc2)SCC1C,,>100 µg/mL
NC(=S)NC1N=C(c2ccccc2)SN1,,32 µg/mL
Cc1nc(NCCCCNc2ccnc3cc(Cl)ccc23)nc(-c2ccccc2[N+](=O)[O-])c1C(=O)OC(C)C,ATCC 24067,5.7 µg/mL
CCCCCCCCC(Cn1ccnc1)c1ccccc1Cl,,10 µg/mL
CCOC(=O)c1c(C)nc(NCCCCNc2ccnc3cc(Cl)ccc23)nc1-c1ccccc1[N+](=O)[O-],ATCC 24067,5.7 µg/mL
CNC1C(C)OC(O[C@H]2c3cc(C)c(C(=O)NC(C)C(=O)O)c(OC)c3-c3c(cc4c(c3O)C(=O)c3cc(OC)cc(OC)c3C4=O)[C@@H]2O)C(O)C1OC1OCC(O)C(O)C1O,IAM 4514,>100 µg/mL
Nc1[nH]c(=O)ncc1F,316,8 µg/mL
CSc1nc2ccccc2c(=O)n1/N=C1\C(=O)N(CN2CCOCC2)c2ccc(Cl)cc21,,4.88 µg/mL
COc1ccc2c(c1)C(=O)/C(=C/c1ccc3ccccc3c1)CO2,25,12.5 µg/mL
Cc1nc(NCCCCNc2ccnc3cc(Cl)ccc23)nc(-c2ccccc2)c1C(=O)OC(C)C,ATCC 24067,5.7 µg/mL
Cc1ccc(/C=C2\CSc3ccccc3C2=O)cc1,25,50 µg/mL
CCCCCCCCCCCCCC#CC1=N[C@H]1C(=O)OC,var. grubii,4 µg/mL
O=C1/C(=C/c2ccc3c(c2)OCO3)COc2ccc(-c3ccccc3)cc21,Farwania,50 µg/mL
CN[C@@H]1[C@H](O[C@@H]2OC[C@@H](O)[C@H](O)[C@H]2O)[C@@H](O)[C@H](O[C@H]2c3cc(C)c(C(=O)N[C@H](C)C(=O)O)c(O)c3-c3c(cc4c(c3O)C(=O)c3cc(OC)c(I)c(O)c3C4=O)[C@@H]2O)O[C@@H]1C,IAM 4514,>100 µg/mL

4 of the rows above, restated:

smiles,strain or isolate,value
Nc1[nH]c(=O)ncc1F,316,8 µg/mL
CCCCCC(Cn1ccnc1)c1ccc(F)cc1,,10 µg/mL
CC(C)=C[C@H]1C[C@](C)(O)C2C3CCC4[C@@]5(C)CCC[C@](C)(O[C@H]6OC[C@H](O)[C@H](OC7O[C@H](CO)[C@@H](O)[C@H](O)[C@H]7OC(=O)/C=C/c7ccc(OC(=O)CC(=O)O)cc7)[C@H]6O[C@H]6C[C@H](CO)[C@@H](O)[C@@H]6O)C5CC[C@@]4(C)[C@@]34CO[C@@]2(C4)O1,,>50 µg/mL
C[C@@H](n1cnc2cc(Cl)ccc2c1=O)[C@](O)(Cn1cncn1)c1ccc(F)cc1F,Isolate 114.95,0.0098 µg/mL